Measured values from several laboratories, pooled; numbers as filed in NIAID ChemDB.

Common to all: target-level tests; agent: HIV-1; protein: Reverse transcriptase; measure: IC50

Lines come from different laboratories, so protocols vary.

{"SMILES": "CC1CN(c2cc3c(cc2F)c(=O)c(C(=O)O)cn3-c2ccc3ccccc3c2)CCN1.CS(=O)(=O)O", "read by": "ELISA", "result": "<1 µg/mL"}
{"SMILES": "c1csc(-c2nnc3c4ccccc4c(N4CCc5ccccc5C4)nn23)c1", "strain or isolate": "IIIB", "read by": "RT activity / fluorescence", "result": ">100 µM"}
{"SMILES": "O=C1Nc2c(OS(=O)(=O)O)cc(Cl)cc2[C@@](C#CC2CC2)(C(F)(F)F)O1", "strain or isolate": "RF", "read by": "nucleotide incorporation / radiometric", "result": ">12.5 µM"}
{"SMILES": "Cc1c(S(=O)(=O)c2ccccc2)[nH]c2ccccc12", "mutations": "K103N", "read by": "RT activity", "result": ">100 µM"}
{"SMILES": "C=CCN1C(=O)c2ccnnc2Oc2ccc(C)cc21", "read by": "ELISA", "result": "<330 µM"}
{"SMILES": "Cc1ccc(S(=O)(=O)c2c(-c3ccc(Cl)cc3)[nH]c3ccccc23)cc1", "mutations": "WT", "read by": "RT activity", "result": "53 µM"}
{"SMILES": "CCN1c2ncc(CCOc3ccc(NC(=O)CCC(=O)O)cc3C)cc2C(=O)N(C)c2cccnc21", "strain or isolate": "IIIB", "read by": "nucleotide incorporation / radiometric", "result": "<0.05 µM"}
{"SMILES": "FC(F)(F)Cc1nnc2c3ccccc3c(N3CCc4ccccc4C3)nn12", "strain or isolate": "IIIB", "read by": "RT activity / fluorescence", "result": "0.59 µM"}
{"SMILES": "CCCCCCCCCCCCCCCC(=O)Nc1c(O)cc(S(=O)(=O)O)c2ccccc12", "read by": "RT activity", "result": "<50 µM"}
{"SMILES": "Cc1ccc2c(c1)N(C(C)C)C(=O)c1cc(Cl)nnc1O2", "read by": "ELISA", "result": "<330 µM"}
{"SMILES": "CCN1c2ncc(CCOc3cccc4c3CNC(=O)N4)cc2C(=O)Nc2c(C)ccnc21", "strain or isolate": "IIIB", "read by": "nucleotide incorporation / radiometric", "result": "<0.05 µM"}
{"SMILES": "Cc1cc(C)c2c(c1)N(CC1CC1)C(=O)c1ccnnc1O2", "read by": "ELISA", "result": "<330 µM"}
{"SMILES": "CS(=O)(=O)O.C[C@@H]1CN(c2nc3c(cc2F)c(=O)c(C(=O)O)cn3-c2ccc3ccccc3c2)C[C@H](C)N1", "read by": "ELISA", "result": "<1 µg/mL"}
{"SMILES": "CSc1nc(N)c(C)c(C(=O)c2ccc(F)cc2)n1", "read by": "nucleotide incorporation / radiometric", "result": "2.1 µM"}
{"SMILES": "Cc1ccc(S(=O)(=O)n2cc(-c3cccc([N+](=O)[O-])c3)c3ccccc32)cc1", "mutations": "WT", "read by": "RT activity", "result": "42 µM"}
{"SMILES": "COc1ccc2c(c1)N(C(C)C)C(=O)c1ccnnc1O2", "read by": "ELISA", "result": "<330 µM"}
{"SMILES": "CCN1c2ncc(CCOc3ccc(S(=O)(=O)Nc4ccc(C(=O)O)cc4)cc3C)cc2C(=O)N(C)c2cccnc21", "strain or isolate": "IIIB", "read by": "nucleotide incorporation / radiometric", "result": "<0.05 µM"}
{"SMILES": "Cc1cc(C)c(S(=O)(=O)Oc2ccc3cccc(S(=O)(=O)O)c3c2)c(C)c1S(=O)(=O)Oc1ccc2cccc(S(=O)(=O)O)c2c1", "read by": "RT activity", "result": "<50 µM"}
{"SMILES": "O=C1C[C@@H](c2ccc(O)cc2)Oc2cc(O)cc(O)c21", "read by": "RT activity", "result": ">735 µM"}
{"SMILES": "CCN1c2ncc(CCOc3ccc(C(=O)NCC(CC)(CC)C(=O)O)cc3C)cc2C(=O)N(C)c2cccnc21", "strain or isolate": "IIIB", "read by": "nucleotide incorporation / radiometric", "result": "<0.05 µM"}
{"SMILES": "CCN1c2ncc(CCOc3cccc4c3CNC(=O)N4C)cc2C(=O)N(C)c2cccnc21", "strain or isolate": "IIIB", "read by": "nucleotide incorporation / radiometric", "result": "<0.05 µM"}
{"SMILES": "O=S(=O)(O)c1cc(S(=O)(=O)O)c2cc(NS(=O)(=O)c3cccc4c(S(=O)(=O)Nc5ccc6cc(S(=O)(=O)O)cc(S(=O)(=O)O)c6c5)cccc34)ccc2c1", "read by": "RT activity", "result": "<50 µM"}
{"SMILES": "N#Cc1cc(Cl)cc(Oc2ccc(Cl)cc2OCC(=O)c2ccc(-c3ccc(OCC(=O)O)cc3)cc2)c1", "read by": "RT activity / ELISA / absorbance", "result": "1.9 µM"}
{"SMILES": "CS(=O)(=O)O.N[C@H]1CCN(c2nc3c(cc2F)c(=O)c(C(=O)O)cn3-c2ccc3ccccc3c2)C1", "read by": "ELISA", "result": "<1 µg/mL"}
{"SMILES": "Nc1ccc2c(c1)CN(c1nn3c(C(F)F)nnc3c3ccccc13)CC2", "strain or isolate": "98US_MSC5016", "read by": "RT activity / fluorescence", "result": "1.09 µM"}
{"SMILES": "COc1ccccc1-c1cn(S(=O)(=O)c2ccc3ccccc3c2)c2ccccc12", "mutations": "K103N", "read by": "RT activity", "result": "63 µM"}
{"SMILES": "CCN1c2ncc(CCOc3cccc4c3CNC(=O)C4)cc2C(=O)N(C)c2cccnc21", "strain or isolate": "IIIB", "mutations": "RT-K103N Y181C", "read by": "nucleotide incorporation / radiometric", "result": "<0.05 µM"}
{"SMILES": "CCN1c2ncc(CCOc3ccc(C(=O)N=c4ccccn4O)cc3C)cc2C(=O)Nc2c(C)ccnc21", "strain or isolate": "IIIB", "mutations": "RT-K103N Y181C", "read by": "nucleotide incorporation / radiometric", "result": "0.05–0.1 µM"}
{"SMILES": "FC(F)c1nnc2c3ccccc3c(N3CCc4ccccc4C3)nn12", "strain or isolate": "98US_MSC5016", "read by": "RT activity / fluorescence", "result": "0.28 µM"}
{"SMILES": "CS(=O)(=O)O.O=C(O)c1cn(-c2cccc3ccccc23)c2nc(N3CCNCC3)c(F)cc2c1=O", "read by": "ELISA", "result": ">1 µg/mL"}
{"SMILES": "CCN1c2ncc(CCOc3ccc4c(c3)COC(=O)N4)cc2C(=O)N(C)c2cccnc21", "strain or isolate": "IIIB", "read by": "nucleotide incorporation / radiometric", "result": "<0.05 µM"}
{"SMILES": "C=CCN1C(=O)c2ccnnc2Oc2ccc(OC)cc21", "read by": "ELISA", "result": "<330 µM"}
{"SMILES": "COc1ccc2c(c1)CN(c1nn3c(-c4cccs4)nnc3c3ccccc13)CC2", "strain or isolate": "98US_MSC5016", "read by": "RT activity / fluorescence", "result": "51.3 µM"}
{"SMILES": "CCN1c2ncc(CCOc3cccc4c3CN(C)C(=O)N4C)cc2C(=O)Nc2c(C)ccnc21", "strain or isolate": "IIIB", "mutations": "RT-K103N Y181C", "read by": "nucleotide incorporation / radiometric", "result": ">0.1 µM"}
{"SMILES": "CN1CCN(c2cc3c(cc2F)c(=O)c(C(=O)O)cn3-c2cccc3ccccc23)CC1.CS(=O)(=O)O", "read by": "ELISA", "result": "<1 µg/mL"}
{"SMILES": "CCN1c2ncc(CCOc3cccc4c3CN(Cc3ccncc3)C4=O)cc2C(=O)N(C)c2cccnc21", "strain or isolate": "IIIB", "mutations": "RT-K103N Y181C", "read by": "nucleotide incorporation / radiometric", "result": "0.05–0.1 µM"}
{"SMILES": "O=S(=O)(O)c1cc(S(=O)(=O)O)c2cc(NS(=O)(=O)c3ccc(-c4ccc(S(=O)(=O)Nc5ccc6cc(S(=O)(=O)O)cc(S(=O)(=O)O)c6c5)cc4)cc3)ccc2c1", "read by": "RT activity", "result": "<50 µM"}
{"SMILES": "CCN1c2ncc(CCOc3cccc4c3ccc[n+]4[O-])cc2C(=O)N(C)c2ccc(Cl)nc21", "mutations": "RT-K103N Y181C", "read by": "nucleotide incorporation / radiometric", "result": "0.051 µM"}
{"SMILES": "O=S(=O)(c1ccc2ccccc2c1)c1c[nH]c2ccccc12", "mutations": "K103N", "read by": "RT activity", "result": "76 µM"}
{"SMILES": "CC1CN(c2cc3c(cc2F)c(=O)c(C(=O)O)cn3-c2cccc3ccccc23)CCN1.CS(=O)(=O)O", "read by": "ELISA", "result": ">1 µg/mL"}
{"SMILES": "Cc1cc(C)c(S(=O)(=O)Nc2cc(C(=O)O)c(O)c(S(=O)(=O)O)c2)c(C)c1S(=O)(=O)Nc1cc(C(=O)O)c(O)c(S(=O)(=O)O)c1", "read by": "RT activity", "result": "<50 µM"}
{"SMILES": "CCN1c2ncc(CCOc3ccc4c(c3)CNC(=O)N4)cc2C(=O)N(C)c2cccnc21", "strain or isolate": "IIIB", "read by": "nucleotide incorporation / radiometric", "result": "0.05–0.1 µM"}
{"SMILES": "CN1CCN(c2nc3c(cc2F)c(=O)c(C(=O)O)cn3-c2cccc3ccccc23)CC1", "read by": "ELISA", "result": ">1 µg/mL"}
{"SMILES": "C=CCN1C(=O)c2ccnnc2Oc2c(C)cc(C)cc21", "read by": "ELISA", "result": "<330 µM"}
{"SMILES": "O=C(CCCCCCCCC(=O)Nc1cc(S(=O)(=O)O)cc2cc(S(=O)(=O)O)cc(O)c12)Nc1cc(S(=O)(=O)O)cc2cc(S(=O)(=O)O)cc(O)c12", "read by": "RT activity", "result": "<50 µM"}
{"SMILES": "FC(F)(F)c1ccc2c(c1)CN(c1nn3c(C4CC4)nnc3c3ccccc13)CC2", "strain or isolate": "98US_MSC5016", "read by": "RT activity / fluorescence", "result": "2.23 µM"}
{"SMILES": "C=Cc1cc(N(CC)CC)nc(S(=O)(=O)Cc2ccc(OC)cc2)n1", "read by": "nucleotide incorporation / radiometric", "result": "407 µM"}

A second listing of 3 rows from above:

{"SMILES": "FC(F)c1nnc2c3ccccc3c(N3CCc4ccccc4C3)nn12", "strain or isolate": "98US_MSC5016", "read by": "RT activity / fluorescence", "result": "0.28 µM"}
{"SMILES": "COc1ccc2c(c1)CN(c1nn3c(-c4cccs4)nnc3c3ccccc13)CC2", "strain or isolate": "98US_MSC5016", "read by": "RT activity / fluorescence", "result": "51.3 µM"}
{"SMILES": "CCN1c2ncc(CCOc3ccc(C(=O)NCC(CC)(CC)C(=O)O)cc3C)cc2C(=O)N(C)c2cccnc21", "strain or isolate": "IIIB", "read by": "nucleotide incorporation / radiometric", "result": "<0.05 µM"}

ICn is the concentration giving n% inhibition. Two numbers with a dash give a range or band.